Pooled drug test results. Numbers come from NIAID ChemDB, via PubChem.

Common to all: target-level tests; organism: HIV-1; target: Protease

Neighbouring rows are from separate reports.

SMILES | method | conditions | read-out | result
O=C(N[C@@H](Cc1ccc2ccccc2c1)C(=O)NCC[C@@H](CO)NC(=O)[C@H](Cc1ccc2ccccc2c1)NC(=O)OCC1c2ccccc2-c2ccccc21)OCC1c2ccccc2-c2ccccc21 | HPLC |  | IC50 | 1.98 µM
CC(C)C[C@H](N)C(=O)N[C@@H](CCC(=O)O)C(=O)N[C@@H](Cc1ccc(O)cc1)C(=O)N[C@H](C=O)CO | HPLC |  | IC50 | 4.8 µM
Cc1cn([C@H]2C[C@H](N=[N+]=[N-])[C@@H](COC(=O)CCC(=O)N[C@@H](Cc3ccccc3)[C@H](O)C(=O)N3CSC[C@H]3C(=O)NC(C)(C)C)O2)c(=O)[nH]c1=O |  |  | IC50 | >5 µM
CC(C)[C@H](NC(=O)COc1cccc2cnccc12)C(=O)N[C@@H](Cc1ccccc1)[C@H](O)C(=O)N1CSC[C@H]1C(=O)NC(C)(C)C |  |  | IC50 | <0.05 µM
COc1ccc(S(=O)(=O)N(CC(O)CN2C(=O)C(CC(N)=O)C[C@@H]2Cc2ccccc2)CC2CCCC2)cc1 |  |  | Ki | 0.03 µM
CC(C)CNC(=O)[C@@H](NC(=O)[C@H](Cc1ccccc1)NC(=O)[C@H](O)[C@H](Cc1ccccc1)NC(=O)[C@@H](NC(=O)OC(C)(C)C)C(C)C)C(C)C |  |  | IC50 | >5 µM
COc1ccc(S(=O)(=O)N(CC(O)CN2C(=O)C3(CCCC3)N(C)C[C@@H]2Cc2ccccc2)CC2CCCC2)cc1 |  |  | Ki | >20 µM
COC(=O)c1ccccc1NCC(O)Cn1c(C(=O)NC(C)(C)C)cc2cc(Cl)ccc21 |  |  | IC50 | 25 µM
O=C(N[C@@H](Cc1ccc([N+](=O)[O-])cc1)C(=O)NCC[C@@H](CO)NC(=O)[C@H](Cc1ccc([N+](=O)[O-])cc1)NC(=O)OCC1c2ccccc2-c2ccccc21)OCC1c2ccccc2-c2ccccc21 | HPLC |  | IC50 | 2.11 µM
CCOC(=O)c1cn(CC(O)CNc2ccccc2C(=O)OC)cc1-c1ccccc1 |  |  | IC50 | 174 µM
CC(C(=O)O)C(C)C(=O)N[C@@H](Cc1ccccc1)[C@H](O)C(=O)N1CSC(C)(C)[C@H]1C(=O)NC(C)(C)C |  |  | IC50 | <5 µM
COCCNC(=O)[C@@H](NC(=O)[C@H](Cc1ccc(OC)c(OC)c1OC)C[C@H](O)[C@H](Cc1ccccc1)NC(=O)OC(C)(C)C)C(C)C | fluorescence |  | IC50 | 0.001 µM
CC(C)[C@H](N)C(=O)N[C@H](C(=O)N[C@@H](Cc1ccccc1)[C@@H](O)C(=O)N[C@@H](Cc1ccccc1)C(=O)N[C@H](C(=O)N[C@H](C(N)=O)C(C)C)C(C)C)C(C)C | substrate cleavage | pH 5.75 | IC50 | 0.35 µM
CC[C@@H](C)[C@H](NC(=O)C1CCCN1C(=O)[C@@H](O)[C@H](Cc1ccccc1)NC(=O)[C@H](CCS(C)(=O)=O)NC(=O)CCc1ccccc1)C(=O)N[C@H](C(N)=O)C(C)C |  |  | IC50 | >0.05 µM
CC[C@H](C)[C@H](NC(=O)[C@@H]1CCCN1C(=O)[C@H](O)[C@H](Cc1ccccc1)NC(=O)[C@H](CC(N)=O)NC(=O)CCc1ccccc1)C(=O)N[C@H](C(N)=O)C(C)C | substrate cleavage | pH 5.75 | IC50 | 3 µM
CC(C)C[C@@H](C=O)NC(=O)[C@H](CO)NC(=O)[C@H](Cc1ccc(O)cc1)NC(=O)[C@H](CCC(=O)O)NC(=O)[C@H](CC(C)C)NC(=O)[C@@H](N)CC(C)C | HPLC |  | Ki | 0.01 µM
CCOC(=O)c1cn(CC(O)CNc2ccc(C(=O)OC)cc2)cc1-c1ccccc1 |  |  | IC50 | 118 µM
CNC(=O)C1NC[C@H](Cc2ccccc2)N(CC(O)CN(CC2CCCC2)S(=O)(=O)c2ccc(OC)cc2)C1=O |  |  | Ki | 0.6 µM
COC(=O)c1ccccc1NCC(O)Cn1c(C(=O)NC(C)(C)C)cc2ccccc21 |  |  | IC50 | 115 µM
CC(C)(C)OC(=O)N[C@@H](Cc1cccc2ccccc12)C(=O)NCC[C@@H](CO)NC(=O)[C@H](Cc1cccc2ccccc12)NC(=O)OC(C)(C)C | HPLC |  | IC50 | 4.4 µM
CC(C)C[C@@H](C=O)NC(=O)[C@@H](N)CC(C)C | HPLC |  | IC50 | <1000 µM
COc1ccc(S(=O)(=O)N(CC(O)CN2C(=O)C(Cc3ccccc3)NC[C@@H]2Cc2ccccc2)CC2CCCC2)cc1 |  |  | Ki | >20 µM
CC(C)[C@H](NC(=O)[C@@H]1CCCN1C(=O)[C@@H](O)[C@H](Cc1ccccc1)NC(=O)[C@H](CC(N)=O)NC(=O)OCc1ccccc1)C(=O)NCC1CCCCC1 |  |  | IC50 | <5 µM
CC(C)C[C@H](NC(=O)OCC1c2ccccc2-c2ccccc21)C(=O)NCC[C@@H](CO)NC(=O)[C@H](CC(C)C)NC(=O)OCC1c2ccccc2-c2ccccc21 | HPLC |  | IC50 | 0.63 µM
CCOC(=O)c1ccn(CC(O)CNc2ccccc2)c1 |  |  | IC50 | >200 µM
CC1(C)CCN(C(=O)[C@@H](O)[C@H](Cc2ccccc2)NC(=O)[C@H](CC(N)=O)NC(=O)OCc2ccccc2)[C@@H]1C(N)=O |  |  | IC50 | >0.05 µM
CCOC(=O)c1cn(CC(O)CNc2ccc(C)cc2)cc1-c1ccccc1 |  |  | IC50 | >200 µM
Cc1ccccc1CNC(=O)[C@@H]1CSCN1C(=O)[C@@H](O)[C@H](Cc1ccccc1)NC(=O)C(C)C(C)C(=O)O |  |  | IC50 | <5 µM
CCOC(=O)c1cn(CC(O)CNc2ccccc2)cc1-c1ccccc1 |  |  | IC50 | >200 µM
CC(=O)N1C2C3C4N(C(C)=O)C5C(C1C5(CO)[C@H]3c1ccccc1)[C@@H](c1ccccc1)C24CO |  |  | IC50 | 0.312 µM

For reference, 3 entries again:

SMILES,method,conditions,read-out,result
CC(C)[C@H](N)C(=O)N[C@H](C(=O)N[C@@H](Cc1ccccc1)[C@@H](O)C(=O)N[C@@H](Cc1ccccc1)C(=O)N[C@H](C(=O)N[C@H](C(N)=O)C(C)C)C(C)C)C(C)C,substrate cleavage,pH 5.75,IC50,0.35 µM
CNC(=O)C1NC[C@H](Cc2ccccc2)N(CC(O)CN(CC2CCCC2)S(=O)(=O)c2ccc(OC)cc2)C1=O,,,Ki,0.6 µM
CC(C)(C)OC(=O)N[C@@H](Cc1cccc2ccccc12)C(=O)NCC[C@@H](CO)NC(=O)[C@H](Cc1cccc2ccccc12)NC(=O)OC(C)(C)C,HPLC,,IC50,4.4 µM

Blank or dashed fields: not listed here. ICn: concentration for n% inhibition.